Assay results reported in patent US5453362, “Eukaryotic transcription protein; host cell factor” (Tularik Inc.).

How the values were obtained:
Assay in all cases: EMSA
[1] = tested on: VP16-induced complex: Oct-1 + GST-VP16 + HCF (HeLa nuclear extract) (Homo sapiens / Herpes simplex virus); details: slower migrating VP16-induced complex; protein in an extract; protein details: GST on VP16 (VP16 residues 5-411, deltaC); label: 32P end
[2] = target: T1, Oct-1 (endogenous, HeLa nuclear extract) (Homo sapiens) (UniProt P14859); details: HeLa nuclear extract, 30 C, poly d(IC); protein in an extract; label: 32P end
T1 sequence (looked up, limits assumed): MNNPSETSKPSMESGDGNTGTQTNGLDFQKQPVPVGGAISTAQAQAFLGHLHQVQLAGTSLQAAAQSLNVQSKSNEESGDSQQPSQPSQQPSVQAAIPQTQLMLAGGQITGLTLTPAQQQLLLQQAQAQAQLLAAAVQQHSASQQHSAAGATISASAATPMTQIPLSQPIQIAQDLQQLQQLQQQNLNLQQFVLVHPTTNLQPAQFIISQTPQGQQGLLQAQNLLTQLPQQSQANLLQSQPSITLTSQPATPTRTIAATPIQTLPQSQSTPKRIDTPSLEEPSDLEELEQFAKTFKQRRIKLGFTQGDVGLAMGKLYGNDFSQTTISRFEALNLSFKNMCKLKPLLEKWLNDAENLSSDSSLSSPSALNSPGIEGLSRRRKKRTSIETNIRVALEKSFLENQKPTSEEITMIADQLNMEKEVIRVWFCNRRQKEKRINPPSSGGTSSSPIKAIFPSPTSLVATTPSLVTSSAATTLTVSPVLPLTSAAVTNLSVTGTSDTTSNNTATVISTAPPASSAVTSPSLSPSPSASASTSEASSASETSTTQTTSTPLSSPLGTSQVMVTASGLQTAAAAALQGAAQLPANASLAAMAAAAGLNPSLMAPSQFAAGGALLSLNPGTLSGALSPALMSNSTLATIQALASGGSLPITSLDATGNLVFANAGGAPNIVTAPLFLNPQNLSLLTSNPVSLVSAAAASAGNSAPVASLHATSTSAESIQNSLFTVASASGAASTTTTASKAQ

[3] = tested on: VP16-induced complex: Oct-1 POU domain + GST-VP16 + Spodoptera HCF (Sf9 extract); details: protein in an extract; protein details: GST on VP16; label: 32P end
[4] = tested on: VP16-induced complex: Oct-1 POU domain + GST-VP16 + Drosophila HCF (SL2 extract); details: requires both VP16 and Oct-1 POU; protein in an extract; protein details: GST on VP16; label: 32P end

Measured: binding result

ATGCTAATGATAT (double strand) [(Octa+)TAATGARAT ICP0 IE element]
binds: all assays above

Where cells or extracts were used, other partners may take part. For some of these results: Tags and fusion partners may be left off the protein sequences shown. For some of these results: Construct, isoform or probe ends are uncertain for at least one entry.
